Test results: the supplement of paper PMC9931576
Where a chain is given by its changes, count along the chain named. Human monoclonal antibodies against the spike receptor-binding domain (heavy:light variable regions). IC50 against pseudoviruses bearing the spike of naturally observed variants; lower = stronger; >10 µg/ml means not reached at the top dose. No active / inactive call. The stated detection limit is 0.0005 µg/ml; values near or below 0.001 µg/ml lie at the floor of the assay.

B1: BD56-1373 (protein)
chain 1: QVHLVQSGTEVKKPGASVKVSCKASGYSFTSYDINWVRQATGQGLEWMGWMNPISGDTGFAQKFQGRVTMTRNTSLSTAYMELSSLRSEDTAVYYCARGARTEFQGELTLFDYWGQGTLITVSS
chain 2: HSALTQPASVSGSRGQSITISCTGTSSDVGSYNLVSWYQQHPGKAPKLIIYEVSKRPSGVSNRFSGSKSGNMASLTISGLQAEDEAEYYCCSYAGGSTVFGGGTKLTVL
B2: BD56-291 (protein)
chain 1: EVQLVQSGAEVKKPGESLKISCQGSGYSYINFWIAWVRQMPGKGLEWMGIIYPDDSDTRYNPSFQGQVTMSVDKSISTAYLQWTTLKASDTAIYYCARHNNNWYGDYYYALDVWGQGTTVTVSS
chain 2: DIQMTQSPSSLAASVGDRITITCQATQDISNYLNWYQQKPGKAPKLLIYDASNLETGVPSRFSGSGSGTDFSLTISSLQPEDIATYYCQQFDNLPLTFGGGTKVQIK
B3: BD56-1372 (protein)
chain 1: EVQLVESGGGVVQPGGSLRLSCAASGFTFDNFAMHWVRQAPGKGLEWVSLISGDGSRIYYGDSVKGRFTISRDNSKDSLYLQMNSLRTEDTALYYCGKDMGFGPPAKYYYYMDVWGKGTTVTVSS
chain 2: QSVLTQPPSASGTPGQRVTISCSGSSSNIGNNYVYWYQQLPGTAPKLLIYRNNQRPSGVPDRFSGSKSGTSASLAISGLRSEDEADYYCAAWDDSLSGGVFGGGTKLTVL
B4: BD56-1376 (protein)
chain 1: EVQLLESGGGLVQPGGSLRLSCAASGFTFRSYAMSWVRQAPGKGLEWVSVIYSDDRITYYADSVMGRFTISRDNSKNTLYLQMNSLRAEDTAVYYCAKGDYGSGTYYNPPPDYWGQGTLVTVSS
chain 2: B3 chain 2 with S26R, G30E, I49V, G65A, G98P, G99W
B5: BD58-0453 (protein)
chain 1: EVQLVESGGGLVQPGGSLRLSCAASGFTFRSYWMHWVRQAPGKGLVWVSRINSDGSSTSYADSVKGRFTISRDNAKNTLYLQMNSLRAEDTAVYYCARDPIMGTGMVKGDYWGQGTLVTVSS
chain 2: NFMLTQPHSVSESPGKTVTISCTGSSGSIASNYVQWYQQRPGSAPTTVIYEDNQRPSGVPDRFSGSIDSSSNSASLTISGLKTEDEADYYCQSYDSSNWVFGGGTKLTVL

Molecular target: SARS-CoV-2 Omicron BA.1 spike pseudovirus
Test: pseudovirus neutralization IC50; higher = weaker neutralization
Procedure: (§1)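 Single-round VSV luciferase pseudovirus mixed with antibody dilutions for 1 h and put on Huh-7 cells for about a day; IC50 from the dose curve.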

| Binder | pseudovirus neutralization IC50 [µg/mL] |
| --- | --- |
| B1 | 0.00227 |
| B2 | 0.0196 |
| B3 | 0.0168 |
| B4 | > 10 |
| B5 | > 10 |

Molecular target: SARS-CoV-2 Omicron BA.2 spike pseudovirus
Test: as above
Procedure: as §1

| Binder | pseudovirus neutralization IC50 [µg/mL] |
| --- | --- |
| B1 | 0.000322 |
| B2 | 0.129 |
| B3 | 0.00283 |
| B4 | 0.00195 |
| B5 | > 10 |

Molecular target: SARS-CoV-2 Omicron BA.2.75 spike pseudovirus
Test: as above
Procedure: as §1

| Binder | pseudovirus neutralization IC50 [µg/mL] |
| --- | --- |
| B1 | 0.000122 |
| B2 | 3.21 |
| B3 | 0.531 |
| B4 | > 10 |
| B5 | > 10 |

Molecular target: SARS-CoV-2 Omicron BA.2.75.2 spike pseudovirus
Test: as above
Procedure: as §1

| Binder | pseudovirus neutralization IC50 [µg/mL] |
| --- | --- |
| B1 | 0.00583 |
| B2 | > 10 |
| B3 | > 10 |
| B4 | > 10 |
| B5 | > 10 |

Molecular target: SARS-CoV-2 Omicron BA.5 spike pseudovirus
Test: as above
Procedure: as §1

| Binder | pseudovirus neutralization IC50 [µg/mL] |
| --- | --- |
| B1 | 0.00044 |
| B2 | > 10 |
| B3 | 0.0129 |
| B4 | > 10 |
| B5 | > 10 |

Molecular target: SARS-CoV-2 Omicron BM.1.1.1 spike pseudovirus
Test: as above
Procedure: as §1

| Binder | pseudovirus neutralization IC50 [µg/mL] |
| --- | --- |
| B1 | 0.113 |
| B2 | > 10 |
| B3 | > 10 |
| B4 | > 10 |
| B5 | > 10 |

Molecular target: SARS-CoV-2 Omicron BQ.1.1 spike pseudovirus
Test: as above
Procedure: as §1

| Binder | pseudovirus neutralization IC50 [µg/mL] |
| --- | --- |
| B1 | 0.00209 |
| B2 | > 10 |
| B3 | 0.948 |
| B4 | > 10 |
| B5 | > 10 |

Molecular target: SARS-CoV-2 Omicron BR.2 spike pseudovirus
Test: as above
Procedure: as §1

| Binder | pseudovirus neutralization IC50 [µg/mL] |
| --- | --- |
| B1 | 0.0558 |
| B2 | > 10 |
| B3 | 0.731 |
| B4 | > 10 |
| B5 | > 10 |

Molecular target: SARS-CoV-2 Omicron CA.1 spike pseudovirus
Test: as above
Procedure: as §1

| Binder | pseudovirus neutralization IC50 [µg/mL] |
| --- | --- |
| B1 | 0.0165 |
| B2 | > 10 |
| B3 | > 10 |
| B4 | > 10 |
| B5 | > 10 |

Molecular target: SARS-CoV-2 Omicron XBB spike pseudovirus
Test: as above
Procedure: as §1

| Binder | pseudovirus neutralization IC50 [µg/mL] |
| --- | --- |
| B1 | 0.00331 |
| B2 | > 10 |
| B3 | > 10 |
| B4 | > 10 |
| B5 | > 10 |

Molecular target: SARS-CoV-2 early D614G spike pseudovirus
Test: as above
Procedure: as §1

| Binder | pseudovirus neutralization IC50 [µg/mL] |
| --- | --- |
| B1 | > 10 |
| B2 | > 10 |
| B3 | > 10 |
| B4 | > 10 |
| B5 | > 10 |
